## Replication capacity of HIV-1 mutants, RT

Protein: RT of HIV-1 NL4-3, numbered from its first residue.
Effects on overlapping genes or RNA elements are not listed.

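Seven fragments of pNL4-3 were mutated by error-prone PCR, and each virus pool was passaged in CEM T cells. Sequencing gave the RC index: frequency after two rounds over frequency in the input plasmid.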

RC index: lower means poorer replication; rough cut-offs are 0.1 (lethal) and 0.2 (tolerated). Each entry names the wild-type residue, its position and the residue put in its place. Input reads are the counts in the plasmid library. Clones carried about five changes per kilobase, which can drag down the index of neutral changes.

I2S (base T2554G, input reads 261): 0.141.
V10L (base G2577T, input reads 134): 0.111.
I37M (base T2660G, input reads 95): 0.0449.
M41K (base T2671A, input reads 316): 0.0202.
K49I (base A2695T, input reads 524): 0.0221.
E53D (base A2708T, input reads 659): 0.0292.
P55T (base C2712A, input reads 304): 0.228.
S68I (base G2752T, input reads 258): 0.0396.
E89D (base A2816T, input reads 346): 0.0246.
K101I (base A2851T, input reads 205): 0.0203.
G112S (base G2883A, input reads 238): 0.0700.
T131A (base A2940G, input reads 156): 0.0534.
N136D (base A2955G, input reads 157): 0.0398.
N147D (base A2988G, input reads 370): 0.0280.
T165A (base A3042G, input reads 469): 0.0735.
I178M (base A3083G, input reads 209): 0.140.
D185N (base G3102A, input reads 114): 0.956.
L209M (base C3174A, input reads 314): 0.0598.
D218N (base G3201A, input reads 196): 0.316.
E248G (base A3292G, input reads 84): 0.371.
S268G (base A3351G, input reads 436): 0.0138.
Y342F (base A3574T, input reads 160): 0.0848.
M357T (base T3619C, input reads 314): 0.0555.
H361Y (base C3630T, input reads 182): 0.181.
D364E (base T3641A, input reads 212): 0.0548.
I380K (base T3688A, input reads 278): 0.0382.
K388I (base A3712T, input reads 302): 0.0439.
L391S (base T3721C, input reads 236): 0.0787.
T397S (base A3738T, input reads 255): 0.0416.
E404K (base G3759A, input reads 241): 0.242.
E404V (base A3760T, input reads 266): 0.0200.
V417D (base T3799A, input reads 248): 0.0368.
P421L (base C3811T, input reads 84): 0.174.
A446S (base G3885T, input reads 83): 0.0660.
R463G (base A3936G, input reads 235): 0.0466.
T477I (base C3979T, input reads 148): 0.282.
E478V (base A3982T, input reads 337): 0.0451.
I521M (base A4112G, input reads 230): 0.0570.
V531F (base G4140T, input reads 93): 0.0529.
I556V (base A4215G, input reads 434): 0.0364.

The opening 3 entries, copied out:

{"mutation": "I2S", "base": "T2554G", "input reads": "261", "replication capacity index": 0.141}
{"mutation": "V10L", "base": "G2577T", "input reads": "134", "replication capacity index": 0.111}
{"mutation": "I37M", "base": "T2660G", "input reads": "95", "replication capacity index": 0.0449}

The authors read an index above 1 as above wild type (1.9% of all changes in the genome). Nucleotide positions follow pNL4-3.

Values reported by Al-Mawsawi et al. 2014 (doi:10.1186/s12977-014-0124-6).